Target: CYP2C8 (Homo sapiens, UniProt P10632)
Experiment: in vitro
Details: microsomes, pH 7.4

Chains of the proteins cited; added tags and fusions are not shown.
UniProt P10632, whole entry: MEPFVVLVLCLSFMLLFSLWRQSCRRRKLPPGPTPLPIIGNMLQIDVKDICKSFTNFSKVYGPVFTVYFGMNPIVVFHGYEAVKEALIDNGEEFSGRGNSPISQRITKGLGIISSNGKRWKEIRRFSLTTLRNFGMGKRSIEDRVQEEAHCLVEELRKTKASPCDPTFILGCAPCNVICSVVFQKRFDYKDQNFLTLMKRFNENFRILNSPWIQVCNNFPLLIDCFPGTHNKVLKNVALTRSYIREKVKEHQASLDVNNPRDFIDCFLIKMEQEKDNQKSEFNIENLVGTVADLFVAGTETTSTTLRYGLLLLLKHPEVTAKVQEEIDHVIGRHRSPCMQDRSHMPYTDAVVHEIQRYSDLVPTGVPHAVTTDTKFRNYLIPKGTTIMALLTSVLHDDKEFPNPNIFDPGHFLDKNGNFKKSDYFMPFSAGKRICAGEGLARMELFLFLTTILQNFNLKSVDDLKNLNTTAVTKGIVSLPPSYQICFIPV

## O=C(O)c1cc(-c2ccc(/C=C3\SC(=S)N(CCc4ccccc4)C3=O)o2)ccc1Cl [NBCoV1]
  activity at 0.37 µM: 87.8%

— paper PMC8780828 (Viruses, 2021)
